# Results published in paper PMC8509808, “Characterization of the Chimeric PriB-SSBc Protein” (International Journal of Molecular Sciences, 2021).
# Biological target: T1, KpPriB (Klebsiella pneumoniae) (UniProt A6THB2)
# T1 sequence (looked up, limits assumed): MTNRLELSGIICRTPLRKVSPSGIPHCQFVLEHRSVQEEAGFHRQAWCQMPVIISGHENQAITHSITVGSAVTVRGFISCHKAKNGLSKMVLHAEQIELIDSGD
# Assay: EMSA
# Conditions: ND, smears, no stable complex up to 50 uM protein; EMSA: 20 mM Tris-HCl pH 8.0, 100 mM NaCl, 25 C, 30 min, 1.7 nM 32P-ssDNA; 8% native PAGE in TBE at 4 C; recombinant protein; label: 5'-32P; single-stranded DNA
sequence,measurement,value
TTTTTTTTTTTTTTTTTTTT [dT20],binding result,binds more weakly

# For at least one entry, the source does not settle the construct or the ends of the probe. A weaker result is weaker than the reference pair of the same experiment. Protein sequences can lack the tags named with them.
